Screening data, single-dose tests

Results are given as percent effect.
How 0% and 100% were set is not recorded. Most values in the screen are low, and negative values occur.
This is part of a subset picked to be rich in strong results.
A dash means the value is not listed here; it may have been measured.

A: 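Whole-cell growth test on Mycobacterium tuberculosis, read after 3 days in glucose-containing 7H9 medium; the read-out is not stated. Compounds at 500 µM. The record gives no direction; compounds that gave an IC50 in retests scored well above the rest, so higher reads as more growth inhibition. Of about 18,000 compounds tested this way, about 1,400 (7.9%) reached 50% or more in at least one test.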
B: 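Growth of Mycobacterium tuberculosis over 4 days (cholesterol / DPPC medium with tyloxapol); the read-out is not stated. Tested at 500 µM. Direction is inferred from retests: higher values go with more growth inhibition. Of about 18,000 compounds tested this way, about 900 (5%) reached 50% or more in at least one test.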

With COCC(O)CNc1nc(CC(C)C)ns1 (stereo not drawn) the screen gave A: 28.22%; B: 19.09%. With CNC(=O)C1CCCN(C(=O)C(C)(C)C)C1 (stereo not drawn) the screen gave B: -5.71%. Result for CC1CCCN(Cc2ccc(CN)cc2)C1 (stereo not drawn) was A: 21.18%. Result for Cc1nc(C(=O)NCc2cccs2)ccc1C#N was A: 83.36%; B: 86.31%.

COCCCNCc1ccc(OC)cc1 gave A: 11.15%. With OCc1cc(F)cc(N2CCOCC2)c1 the screen gave B: -1.378%. Result for CC(C(=O)NC1CC1)N1CCN(C)c2ccccc2C1 (stereo not drawn) was A: 54.58%. Cc1cnc(CNCC2(O)CNCCOC2)cn1 (stereo not drawn) gave A: -24.46%.

CNCCCNC(=O)c1coc(Br)c1 gave A: 6.344%; B: -17.26%. Result for Cc1cc(C(N)=O)n[nH]1 was A: 7.903%. Cc1nn(C)c(C)c1CCC(=O)N1C[C@H]2CC[C@@H](C1)N2 gave B: 4.762%. Result for Cc1nc(CCSc2nnc(C)n2CC(N)=O)cs1 was B: -1.036%.

NCc1nnc(CCc2ccccc2)o1 gave A: 35.55%. Result for COc1cc(NC(=O)N2CCCC(N)C2)ccc1C (stereo not drawn) was B: 31.85%. CCOC(C(=O)N(C)CC(N)=O)c1ccccc1 (stereo not drawn) gave A: 53.51%; B: 8.826%. Result for CCn1nc(CC(C)C)cc1C(=O)N1CC(O)C1 was B: 22.63%.

CC(C)CNc1cccc(-n2cnnn2)c1 gave A: 70.88%; B: 63.17%. With CC(Cc1cccs1)C(=O)NC(C)(CO)CO (stereo not drawn) the screen gave A: 14.16%. For O=C(CN1C[C@H]2CC[C@@H](C1)[C@H]2O)Nc1ccc(F)cc1 the result was B: 33.52%. CCc1cc(C(=O)NCC(C)C)no1 read A: 6.848%.

For CC(C)CN1C(=O)c2cccn2CC1CN (stereo not drawn) the result was A: 34.03%. CCNc1nnc(SCc2ccnn2C)s1 gave A: 25.13%; B: 17.54%. Result for O=C(NCCCN1CCCCC1CO)c1cnn[nH]1 (stereo not drawn) was A: -1.211%. For CCOCCC(=O)N1CCN(c2ccc(F)cc2)CC1 the result was A: 74.51%; B: 70.18%.

With CC(C)(C)C(=O)CNC(=O)c1ccc[nH]1 the screen gave A: 7.003%. Result for Cc1cccn2cc(CNc3ccc(C#N)nc3)nc12 was A: -2.407%; B: 0.1471%. Result for COCCCNC(=O)c1coc(Br)c1 was A: 62.93%; B: 54.82%. For Cc1nnc(SCCO)s1 the result was A: 2.887%.

Result for C=C(C(=O)OC)C(O)c1ccc(F)c(F)c1 (stereo not drawn) was A: 48.9%. With Cc1noc(C)c1CNC(=O)N(C)Cc1ccncc1 the screen gave A: -1.427%. CSCCc1nc(CC2CCS(=O)(=O)C2)n(CCO)n1 (stereo not drawn) gave A: 0.6413%. With CN(C)c1nc(-c2ccc3c(c2)CCC(=O)N3)cs1 the screen gave A: 56.25%; B: 56.62%.

Cc1ccncc1N1CCNCC1 read B: 1.029%.

The first 3 entries again:

compound,A,B
COCC(O)CNc1nc(CC(C)C)ns1 (stereo not drawn),28.22%,19.09%
CNC(=O)C1CCCN(C(=O)C(C)(C)C)C1 (stereo not drawn),-,-5.71%
CC1CCCN(Cc2ccc(CN)cc2)C1 (stereo not drawn),21.18%,-

The values are deposited in ChEMBL (CHEMBL3988442, “University of Dundee, Small-Polar-MMV Screening Library” (2021)).